Reference: PMC5709419, “Fine control of metal concentrations is necessary for cells to discern zinc from cobalt”

How the values were obtained:
[1] = molecular target: T1, RcnR (Salmonella enterica sv. Typhimurium SL1344) (UniProt Q7CPV3); test: fluorescence anisotropy; conditions: 10 nM probe, 60 mM NaCl, 240 mM KCl, 10 mM HEPES pH 7.0, anaerobic, temperature not stated, recombinant protein, label: 5' HEX on strand 1
T1 sequence (looked up, limits assumed): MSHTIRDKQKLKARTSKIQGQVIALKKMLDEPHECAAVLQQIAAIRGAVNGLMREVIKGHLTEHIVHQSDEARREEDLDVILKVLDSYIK

[2] = molecular target: T2, Zur (Salmonella enterica sv. Typhimurium SL1344) (UniProt A0A0H3NVF0); test: fluorescence anisotropy; conditions: apo (structural Zn only), 5 mM EDTA, printed as >=; 10 nM probe, 60 mM NaCl, 240 mM KCl, 10 mM HEPES pH 7.0, anaerobic; temperature not stated; recombinant protein; label: 5' HEX on strand 1
T2 sequence (looked up, limits assumed): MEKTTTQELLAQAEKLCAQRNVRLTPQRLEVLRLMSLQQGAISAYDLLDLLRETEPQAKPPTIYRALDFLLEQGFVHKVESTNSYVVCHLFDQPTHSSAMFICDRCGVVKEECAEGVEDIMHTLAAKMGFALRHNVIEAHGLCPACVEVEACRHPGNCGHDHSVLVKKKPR

For “TACTCCCCCCCAGTATAGAATACTACCCCCCAGTA (double strand) [rcnAPro]”, the Kd ([1]; Zn(II)-RcnR, 1.2 eq ZnCl2, printed as >=, >=90-fold weaker than apo) was over 13 µM and the binding result ([1]; apo, 5 mM EDTA, titrated here, Kd only from earlier paper) was “binds”.

Sequence “TAGAATGTTATAATATCACATTTCACACATTCA (double strand) [znuAPro]” has a Kd [2] of over 27 µM.

The exact form of at least one protein or probe is not confirmed. For part of these data: At least one verdict was read from the data and is not stated in words by the source. Where a protein sequence is shown, tags need not be part of it.
